{"source": "patent US20080206834A1", "about": "“RECOMBINANT ORGANOPHOSPHOROUS ACID ANHYDRASE AND METHODS OF USE” (published 2008)", "biological_target": "recombinant OPA enzyme (Brevundimonas diminuta, UniProt P0A434)", "experiment": "Kinetic constants for the hydrolysis of organophosphorus insecticides (substrate specificity)", "details": "pH 9, 100 mM CHES buffer, 10% methanol"}
{"smiles": "CCOP(=O)(OCC)Oc1ccc([N+](=O)[O-])cc1", "values": [{"measurement": "Km", "result": 90, "unit": "µM"}]}
